Experimental data from article PMC9299109 (Iubmb Life, 2021).

Key:
Assay in all cases: purified protein
[1] = system: Cc1cc2nc3c(=O)[nH]c(=O)nc-3n(C[C@H](O)[C@H](O)[C@H](O)CO)c2cc1C; conditions: pH 7.0; 25.0 °C
[2] = system: Cc1cc2nc3c(=O)[nH]c(=O)nc-3n(C[C@H](O)[C@H](O)[C@H](O)COP(=O)(O)O)c2cc1C; conditions: pH 8.0; 37.0 °C
[3] = system: Cc1cc2nc3c(=O)[nH]c(=O)nc-3n(C[C@H](O)[C@H](O)[C@H](O)COP(=O)(O)OP(=O)(O)OC[C@H]3O[C@@H](n4cnc5c(N)ncnc54)[C@H](O)[C@@H]3O)c2cc1C; conditions: pH 8.0; 37.0 °C
[4] = system: Nc1ncnc2c1ncn2[C@@H]1O[C@H](COP(=O)(O)OP(=O)(O)OP(=O)(O)O)[C@@H](O)[C@H]1O
O=P(O)(O)OP(=O)(O)O = conditions: pH 8.0; 37.0 °C

How did the Km [1] turn out when “BoFADS (FAD synthase from Brucella ovis) (Brucella ovis ATCC 25840)” was run?
The Km was 0.6 ± 0.1 µM.

And the kcat/Km [1]?
The kcat/Km was 333000 M⁻¹ s⁻¹.

And the Km [2]?
Its Km is 5.1 ± 0.4 µM.

What about the kcat/Km [2] of the same substance?
Its kcat/Km is 23300 M⁻¹ s⁻¹.

What about the Km [3] of the same substance?
The Km was 1.5 ± 0.5 µM.

And the kcat/Km [3]?
The kcat/Km was 15000 M⁻¹ s⁻¹.

What about the Km ([4]; pH 7.0, 25.0 °C) of the same substance?
Its Km is 50 ± 5 µM.

And the kcat/Km ([4]; pH 7.0, 25.0 °C)?
The kcat/Km was 3330 M⁻¹ s⁻¹.

What about the Km ([4]; pH 8.0, 37.0 °C) of the same substance?
The Km was 97 ± 9 µM.

What about the kcat/Km ([4]; pH 8.0, 37.0 °C) of the same substance?
The kcat/Km was 1170 M⁻¹ s⁻¹.

What about the Km (O=P(O)(O)OP(=O)(O)O) of the same substance?
The Km was 12 ± 2 µM.

And the kcat/Km (O=P(O)(O)OP(=O)(O)O)?
The kcat/Km was 2000 M⁻¹ s⁻¹.
